Assay results: paper PMC8628512

Chains of the proteins cited; added tags and fusions are not shown. A change or cut given only in a name is not applied to a line headed by its entry. A line that says so, or that is headed by a name, gives the form on record, which may keep a tag or linker. Residues count along the entry.
UniProt P02745, 23-245: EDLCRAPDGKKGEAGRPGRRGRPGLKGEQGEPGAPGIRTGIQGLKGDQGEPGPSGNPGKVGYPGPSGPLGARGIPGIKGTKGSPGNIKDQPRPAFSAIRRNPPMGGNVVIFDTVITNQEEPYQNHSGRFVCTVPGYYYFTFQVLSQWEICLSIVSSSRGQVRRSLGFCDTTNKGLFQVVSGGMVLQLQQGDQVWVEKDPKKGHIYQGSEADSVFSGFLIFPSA
C1q native protein, UniProt P02746, 28-253: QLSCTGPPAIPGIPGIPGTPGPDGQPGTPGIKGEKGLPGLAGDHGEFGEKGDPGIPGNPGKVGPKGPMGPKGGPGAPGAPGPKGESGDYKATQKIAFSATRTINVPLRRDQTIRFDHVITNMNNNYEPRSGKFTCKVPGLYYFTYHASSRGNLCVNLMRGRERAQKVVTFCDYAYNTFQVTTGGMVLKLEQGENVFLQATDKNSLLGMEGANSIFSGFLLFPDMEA
C1q native protein, UniProt P02747, 29-245: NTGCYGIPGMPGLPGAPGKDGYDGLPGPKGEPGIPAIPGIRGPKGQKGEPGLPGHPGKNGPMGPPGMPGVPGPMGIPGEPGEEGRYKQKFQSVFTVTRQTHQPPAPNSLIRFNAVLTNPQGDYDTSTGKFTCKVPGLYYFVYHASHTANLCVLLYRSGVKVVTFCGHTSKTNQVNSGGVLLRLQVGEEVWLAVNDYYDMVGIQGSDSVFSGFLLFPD
MD65-AG, a-glycosylated (AG) Fc format of MD65 (N297G/S298G/T299A on the YTE backbone) (human), light, as listed by the source, chain 2 of 2: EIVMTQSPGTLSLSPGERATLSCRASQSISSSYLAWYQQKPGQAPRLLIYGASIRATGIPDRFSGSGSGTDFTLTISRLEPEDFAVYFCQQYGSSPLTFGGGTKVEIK
MD65-AG, a-glycosylated (AG) Fc format of MD65 (N297G/S298G/T299A on the YTE backbone) (human), heavy, as listed by the source, chain 1 of 2: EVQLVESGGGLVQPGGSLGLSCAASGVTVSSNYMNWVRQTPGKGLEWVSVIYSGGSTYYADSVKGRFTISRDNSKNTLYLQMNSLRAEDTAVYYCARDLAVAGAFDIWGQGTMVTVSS

Target: MD65-AG, a-glycosylated (AG) Fc format of MD65 (N297G/S298G/T299A on the YTE backbone) (human)
Test: BLI; Octet, 30 °C, 1500 rpm; Fab2G sensors loaded with antibody at 10 µg/mL; C1q native protein 250 nM, 180 s association, 180 s dissociation; MD65-Fab sensor subtracted

fold lower affinity than toward MD65: 260 fold
Substance: C1q native protein (from UniProt P02745 23-245; P02746 28-253; P02747 29-245) (complex)
